Values of other authors, collected in publication PMC10531517, “Rational Design of Novel Peptidomimetics against Influenza A Virus: Biological and Computational Studies” (International Journal of Molecular Sciences, 2023).

System: A/Parma/24/09 H1N1 virus
Parameters: method as in Scala et al. (2017) [23]
Details: reference peptides; ref Scala et al. (2017) [23]; cited from earlier work

| Substance | SI (ratio of CC50 and EC50) |
| --- | --- |
| SKHS [Peptide 2] | >5.2 × 10^8 |
| SLDC [Peptide 1] | >5.4 × 10^6 |
